Anti-infective test results gathered from many reports (values: NIAID ChemDB through PubChem).

Shared fields: tests on isolated targets; organism: Hepatitis C virus

Neighbouring rows are from separate reports. An empty or dashed field is not shown. Percent inhibition refers to the dose given; in toxicity tests it is the harm to the cells. ICn: concentration for n% inhibition. Two numbers with a dash give a range or band.

smiles	target	dose	endpoint	result
O=C(O)c1cnc2c(c1)nc(-c1ccc3nc(-c4ccccc4Br)ccc3c1)n2C1CCCCC1	NS5B polymerase	100 µM	inhibition	95.91%
Cc1ccccc1S(=O)(=O)Nc1cc(-c2ccccc2C(=O)O)sc1C(=O)O	NS3 ATPase		IC50	5–20 µM
O=C(Nc1cscc1-c1nc(C(=O)O)c(O)c(=O)[nH]1)c1ccccc1Cl	HCV polymerase		IC50	<25 µM
FC(F)(F)c1cccc(COc2ccc(-c3cnc4c(-c5nn[nH]n5)cnn4c3C3CCCCC3)cc2)c1	RNA-dependent RNA polymerase		IC50	<1 µM
Cc1ccccc1C(=O)Nc1cc(Cc2cccc(C#N)c2)sc1C(=O)O	NS3 ATPase		IC50	>20 µM
C[C@@H](NC(=O)Nc1cccc(-c2nc(C(=O)O)c(O)c(=O)[nH]2)c1)c1ccccc1	HCV polymerase		IC50	<100 µM
O=C(O)c1ccc2c(c1)nc(-c1ccc3nc(-c4cc(C(=O)N5CCCC5)ccc4-c4ccc([N+](=O)[O-])cc4)ccc3c1)n2C1CCCCC1	NS5B polymerase	33 µM	inhibition	102%
O=C(O)c1sc(-c2ccccc2)cc1NS(=O)(=O)Cc1cc(OCC(F)(F)F)ccc1OCC(F)(F)F	NS3 ATPase		IC50	5–20 µM
O=C(Nc1cccc(F)c1)Nc1cscc1-c1nc(C(=O)O)c(O)c(=O)[nH]1	HCV polymerase		IC50	<25 µM
COc1ccc(-c2ccc(Cl)cc2)c(-c2ccc3cc(-c4nc5cc(C(=O)O)ccc5n4CCC(C)C)ccc3n2)c1	NS5B polymerase	33 µM	inhibition	99.64%
CCc1cc2cc(-c3cnc4c(C(=O)O)cnn4c3C3CCCCC3)ccc2o1	RNA-dependent RNA polymerase		IC50	1–10 µM
O=C(O)c1sc(-c2ccccc2)cc1N(C(=O)c1ccc(Cl)cc1Cl)C(CO)CO	NS3 ATPase		IC50	<5 µM
CCOC(=O)c1cnc2c(c1)nc(-c1ccc3nc(-c4cc(O)ccc4-c4ccc(Cl)cc4)ccc3c1)n2C1CCCCC1	NS5B polymerase	100 µM	inhibition	72.78%
Cc1cccc(NC(=O)Nc2cccc(-c3nc(C(=O)O)c(O)c(=O)[nH]3)c2)c1	HCV polymerase		IC50	<100 µM
CC1(C)C(CC(=O)O)CC1c1ccc2cc(-c3nc4cc(C(=O)O)ccc4n3C3CCCCC3)ccc2n1	NS5B polymerase	100 µM	inhibition	100%
O=C(O)c1cc2nc(-c3ccc(Oc4ccccc4)cc3)cc(-c3ccccc3Cl)n2n1	RNA-dependent RNA polymerase		IC50	1–10 µM
Cc1ccccc1S(=O)(=O)Nc1cc(-c2cccc(F)c2)sc1C(=O)O	NS3 ATPase		IC50	<5 µM
O=C(NCCc1ccccc1)Nc1ccsc1-c1nc(C(=O)O)c(O)c(=O)[nH]1	HCV polymerase		IC50	<25 µM
COc1ccc(-c2ccccc2)c(-c2ccc3cc(-c4nc5cc(C(=O)O)ccc5n4C4CCCCC4)ccc3n2)c1	NS5B polymerase	33 µM	inhibition	101%
O=C(Cc1ccc(Br)cc1)Nc1ccsc1-c1nc(C(=O)O)c(O)c(=O)[nH]1	HCV polymerase		IC50	<25 µM
CC(C)N(C(=O)c1ccc(Cl)cc1Cl)c1cc(-c2ccc3[nH]ccc3c2)sc1C(=O)O	NS3 ATPase		IC50	<5 µM
O=C(O)c1cc2nc(-c3ccc(Cl)cc3)cc(-c3ccc(Oc4ccccc4)cc3)n2n1	RNA-dependent RNA polymerase		IC50	1–10 µM
O=C(NCCc1ccc(Cl)cc1Cl)Nc1cscc1-c1nc(C(=O)O)c(O)c(=O)[nH]1	HCV polymerase		IC50	<25 µM
O=C(O)c1sc(-c2ccccc2)cc1N(C(=O)c1ccc(Cl)cc1Cl)C1CCN(C(=O)c2ccc(Cl)cc2Cl)CC1	NS3 ATPase		IC50	<5 µM
O=C(O)c1nc(-c2cc([N+](=O)[O-])cs2)[nH]c(=O)c1O	HCV polymerase		IC50	<25 µM
O=C(O)c1cnn2c(C3CCCCC3)c(-c3ccc(-c4ccccc4)cc3)cnc12	RNA-dependent RNA polymerase		IC50	1–10 µM
O=C(O)c1sc(-c2ccccc2)cc1N(Cc1ccc(C(F)(F)F)cc1)C(=O)CC1CCCC1	NS3 ATPase		IC50	5–20 µM